Values from PubChem BioAssay AID504761 (Drosophila RNAi Screening Center, 2011).
The screen tested about 22,000 reagents; shown is an unselected part of those with a known target gene and a result. Of all reagents, 116 (0.52%) got an active call. 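Calls depend on retest data that are not deposited; infection was ranked per plate without normalising between plates; the unit of the infection score is not given.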 Not all columns of the deposit are shown. No sequences are given here. Not given: the amount of reagent, the time to read-out.

- Test: 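Genome-wide fly cell screen for genes dengue virus requires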 (primary screen)
- Cell system: D.Mel-2 cells from Drosophila
- Reagent: long dsRNA against Drosophila genes
- Conditions: infection with dengue virus type 2; dose and infection time not stated
- Detection: 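Cells stained for dengue envelope protein and imaged; percent of infected cells per well on duplicate plates, ranked by infection, with stained nuclei counted for cell number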
- Scale: infection score: higher = more virus-infected cells
- Hit rule: 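Low infection ranks in the two replicates (chance level up to 0.065) followed by a retest with a 1.5-fold or larger significant decrease, p below 0.05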
- Calls: active = confirmed: knock-down lowers infection; inactive = not picked or not confirmed

e(r) (GeneID 43951) [DRSC18768] | infection score, replicate 1: 2.18; activity call: inactive
CG9577 (GeneID 33016) [DRSC20693] | infection score, replicate 1: 2.88; activity call: inactive
CG9577 (GeneID 33016) [DRSC27691] | infection score, replicate 1: 18.7; activity call: inactive
CG3021 (GeneID 53546) [DRSC18165] | infection score, replicate 1: 5.59; activity call: inactive
CG3021 (GeneID 53546) [DRSC18652] | infection score, replicate 1: 3.28; activity call: inactive
CG13403 (GeneID 32366) [DRSC19535] | infection score, replicate 1: 4.4; activity call: inactive
CG13403 (GeneID 32366) [DRSC26850] | infection score, replicate 1: 2.87; activity call: inactive
galene (GeneID 38133) [DRSC08640] | infection score, replicate 1: 1.97; activity call: inactive
galene (GeneID 38133) [DRSC08641] | infection score, replicate 1: 3.17; activity call: inactive

As entered above:
CG3021 (GeneID 53546) [DRSC18652], activity call = inactive
CG9577 (GeneID 33016) [DRSC20693], activity call → inactive
galene (GeneID 38133) [DRSC08640], activity call = inactive

The results go on.
CG18418 (GeneID 38572) [DRSC08535] | infection score, replicate 1: 7.46; activity call: inactive
CG18418 (GeneID 38572) [DRSC25732] | infection score, replicate 1: 20.9; activity call: inactive
Or9a (GeneID 31975) [DRSC18692] | infection score, replicate 1: 4.7; activity call: inactive
Or9a (GeneID 31975) [DRSC28277] | infection score, replicate 1: 9.22; activity call: inactive
CG17944 (GeneID 40885) [DRSC12572] | infection score, replicate 1: 7; activity call: inactive
CG4849 (GeneID 43358) [DRSC15662] | infection score, replicate 1: 39; activity call: inactive
CG4849 (GeneID 43358) [DRSC27175] | infection score, replicate 1: 31; activity call: inactive
CG32830 (retired record) (GeneID 318236) [DRSC01162] | infection score, replicate 1: 2.45; activity call: inactive
CG32830 (retired record) (GeneID 318236) [DRSC23151] | infection score, replicate 1: 2.42; activity call: inactive
CG8012 (GeneID 50305) [DRSC10951] | infection score, replicate 1: 4.79; activity call: inactive
gol (GeneID 38006) [DRSC04689] | infection score, replicate 1: 15.4; activity call: inactive
Sr-CI (GeneID 33621) [DRSC00790] | infection score, replicate 1: 18.4; activity call: inactive
Sr-CI (GeneID 33621) [DRSC23942] | infection score, replicate 1: 2.48; activity call: inactive
